{"source": "paper PMC11946258", "about": "“Self-Assembly, Antimicrobial Properties and Biodegradability of Ester-Functionalized Choline-Based Surface-Active Ionic Liquids” (Molecules, 2025)", "test_system": "microorganisms derived from activated sludge", "assay": "Aerobic biodegradability, CO2 Headspace Test (OECD 310)", "conditions": "for Biodegradation (%) 28 Days: 95% confidence limits, four replicates", "note": "Several values for one entry are separate records, joined by “and”; a condition that tells them apart may be missing. Identical values can stand only once.", "data": [{"compound": "CCCCCCCCCCOC(=O)C[N+](C)(C)CCO", "note": "[C10ECholBr]", "values": [{"measurement": "Biodegradation (%) 7 Days", "result": 10, "unit": "%"}, {"measurement": "Biodegradation (%) 14 Days", "result": 19, "unit": "%"}, {"measurement": "Biodegradation (%) 21 Days", "result": 40, "unit": "%"}, {"measurement": "Biodegradation (%) 28 Days", "result": "64 ± 2.9", "unit": "%"}]}, {"compound": "CCCCCCCCCCCCOC(=O)C[N+](C)(C)CCO", "note": "[C12ECholBr]", "values": [{"measurement": "Biodegradation (%) 7 Days", "result": 26, "unit": "%"}, {"measurement": "Biodegradation (%) 14 Days", "result": 28, "unit": "%"}, {"measurement": "Biodegradation (%) 21 Days", "result": 46, "unit": "%"}, {"measurement": "Biodegradation (%) 28 Days", "result": "69 ± 5.5", "unit": "%"}]}, {"compound": "CCCCCCCCCCCCCCOC(=O)C[N+](C)(C)CCO.[Br-]", "note": "[C14ECholBr, N-(2-hydroxyethyl)-N,N-dimethyl-2-oxo-2-(tetradecyloxy)ethan-1-aminium bromide]", "values": [{"measurement": "Biodegradation (%) 7 Days", "result": 29, "unit": "%"}, {"measurement": "Biodegradation (%) 14 Days", "result": 34, "unit": "%"}, {"measurement": "Biodegradation (%) 21 Days", "result": 57, "unit": "%"}, {"measurement": "Biodegradation (%) 28 Days", "result": "more than 60% and 61 ± 3.0%"}]}]}
